# Screening data, single-dose tests

The values are deposited in ChEMBL (CHEMBL3988442, “University of Dundee, Small-Polar-MMV Screening Library” (2021)).

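Phenotypic screen: M. tuberculosis growth, cholesterol and DPPC medium, 4 days; the read-out is not stated. Tested at 500 µM. Direction is inferred from retests: higher values go with more growth inhibition. Size under these conditions: about 18,000 compounds, about 900 of them at 50% or above in at least one test.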

Each number is a percent effect as filed. The record does not define 0% and 100%; most values in the screen are far below 50% and negative numbers occur (in some assays of this library far below -100). This is part of a subset picked to be rich in strong results.

CNc1cc(-c2cccc(OC)c2OC)nc(N)n1 gave -5.72%.
Cc1ccc2oc(CN)cc2c1 gave -3.703%.
COCCNCc1scnc1C gave 0.4757%.
OC1(CNc2nc(-c3ccccc3)ns2)CCSC1 (centres undefined) gave 92.18%.
CC(C)CC(C)(N)CN (centres undefined) gave 13.81%.
Cc1occc1S(=O)(=O)Cc1nc(C2CC2)n[nH]1 gave -1.792%.
CCC=C(C)C(=O)NCC(C)N1CCN(CC)CC1 (centres undefined) gave 1.858%.
O=C(CNC(=O)c1ccc2c(c1)OCO2)NCC1CC1 gave 1.845%.
Cc1cccc(NC(=O)CCc2ccco2)n1 gave -19.1%.
NCCNS(=O)(=O)c1ccccc1 gave 4.548%.
O=C(NCCn1ccnn1)c1c(O)cccc1F gave 3.025%.
Cn1cc(Cn2nc(-c3ccco3)oc2=O)cn1 gave 52.83%.
CSc1ncccc1C(=O)N1CCC(CS(N)(=O)=O)C1 (centres undefined) gave 4.495%.
N[C@@H]1CCN(C(=O)CCc2ccc(F)cc2)C1 gave 15.64%.
COc1cccc(Nc2ncnc(N)n2)c1 gave 6.127%.
OCCCNCC(F)(F)F gave -0.3025%.
CCS(=O)(=O)NCCSc1nc2cc(F)c(F)cc2[nH]1 gave 58.75%.
CSc1c(F)cc(NC(=O)NCCO)cc1F gave 41.7%.
CC(N)CN1CCOC1=O (centres undefined) gave -7.004%.
CN1CCN(c2ccnc(SCC(N)=O)n2)CC1 gave 95.45%.
NCCNS(=O)(=O)c1ccccc1-c1ccccc1 gave -5.72%.
COc1ccccc1CC(=O)N(C)C1CCS(=O)(=O)C1 (centres undefined) gave 25.16%.
Cc1cccc(NC(=O)Cn2cnnn2)c1 gave -20.02%.
Cc1cccc2nc(C(=O)NCCOCCO)c(F)n12 gave 7.043%.
COC(=O)c1cccc(NC(=O)c2n[nH]cc2I)c1 gave 18.56%.
Cc1nnnn1CCC(=O)NCc1cn2ccsc2n1 gave 16.46%.
CCc1noc(Cn2cnc3ccccc3c2=O)n1 gave 30.14%.
CCCNC(=O)CN1CCN(c2ccccc2O)CC1 gave -17.55%.
COCCN(C)C(=O)Nc1cccc(Cl)c1 gave 53.99%.
CCC(CC)NC(=O)CCn1cncn1 gave -17.86%.
CN(C)C(CN)c1ccc(F)cc1 (centres undefined) gave 26.7%.
NC(=O)c1cc(OC2CCNCC2)ccn1 gave 1.408%.
N[C@H]1C[C@@H](c2cc(NCCc3cscn3)ncn2)C1 gave 8.456%.
O=C(Nc1nc(-c2cccs2)ns1)C1CCCN1 (centres undefined) gave 10.14%.
CCOCCN1CCN(C(=O)CN2CCCC2)CC1 gave -31.62%.
CNC(=O)c1sc(NC2CC2)nc1C gave 83.15%.
CCN(CC)Cc1ccc2c(c1)CNCCO2 gave -25.16%.
CC(Nc1ccc(OC(F)F)cn1)c1ccncc1 (centres undefined) gave 82.32%.
CS(=O)(=O)CCN(CC(O)c1ccccc1)C1CC1 (centres undefined) gave -14.5%.
COc1ccccc1CC(=O)Nc1ccon1 gave 16.98%.
Cc1nnc(C2CCCN2)o1 (centres undefined) gave -4.692%.
COc1ccc(OCC(=O)N2CCN(C)CC2)cc1 gave 1.789%.
CC(C)C(=O)Nc1ccccc1CN(C)C gave -4.882%.
CN(C)[C@@H]1CN(C(=O)c2ccccc2Cl)C[C@H]1CO gave -14.22%.
CN1CCC(C(=O)NCCc2cccc(Cl)c2)CC1=O (centres undefined) gave -0.3935%.
CSCc1noc(CN2CCCC2c2nc(C)n[nH]2)n1 (centres undefined) gave 15.6%.
COC(=O)C(C)OC(=O)c1cccnc1SC (centres undefined) gave 26.49%.
Cc1ccc2c(c1)C(O)CCCS2(=O)=O (centres undefined) gave 2.629%.
Cn1nnnc1SC(C(N)=O)c1ccc(Br)cc1 (centres undefined) gave 18.38%.
NS(=O)(=O)CCc1ccc(F)cc1 gave -13.97%.
CC(C)(C)C1CNCCO1 (centres undefined) gave 2.471%.
CC(C(N)=O)S(=O)(=O)c1ncccc1Cl (centres undefined) gave -3.892%.
CC(C)(C)C(=O)N1CCN(C(=O)[C@@H](N)C(C)(C)C)CC1 gave -14.52%.
CSCc1cccc(CNC(=O)c2ccon2)c1 gave 39.82%.
CSCCC(O)C(=O)NCC1(Cn2cccn2)CC1 (centres undefined) gave 0.4147%.
Cc1ccc(OCC(C)N)cc1 (centres undefined) gave -3.11%.

5 of the entries, repeated:

{"smiles": "CSCc1cccc(CNC(=O)c2ccon2)c1", "Percent Effect": 39.82}
{"smiles": "CNC(=O)c1sc(NC2CC2)nc1C", "Percent Effect": 83.15}
{"smiles": "CCC(CC)NC(=O)CCn1cncn1", "Percent Effect": -17.86}
{"smiles": "CC(C)C(=O)Nc1ccccc1CN(C)C", "Percent Effect": -4.882}
{"smiles": "CN1CCN(c2ccnc(SCC(N)=O)n2)CC1", "Percent Effect": 95.45}